Target: T1, Pup(43-63)-Glu(AMC)
T1 chain: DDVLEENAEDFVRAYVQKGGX

B1: Dop-His6 (deamidase of Pup with histidine tag) (protein)
chain: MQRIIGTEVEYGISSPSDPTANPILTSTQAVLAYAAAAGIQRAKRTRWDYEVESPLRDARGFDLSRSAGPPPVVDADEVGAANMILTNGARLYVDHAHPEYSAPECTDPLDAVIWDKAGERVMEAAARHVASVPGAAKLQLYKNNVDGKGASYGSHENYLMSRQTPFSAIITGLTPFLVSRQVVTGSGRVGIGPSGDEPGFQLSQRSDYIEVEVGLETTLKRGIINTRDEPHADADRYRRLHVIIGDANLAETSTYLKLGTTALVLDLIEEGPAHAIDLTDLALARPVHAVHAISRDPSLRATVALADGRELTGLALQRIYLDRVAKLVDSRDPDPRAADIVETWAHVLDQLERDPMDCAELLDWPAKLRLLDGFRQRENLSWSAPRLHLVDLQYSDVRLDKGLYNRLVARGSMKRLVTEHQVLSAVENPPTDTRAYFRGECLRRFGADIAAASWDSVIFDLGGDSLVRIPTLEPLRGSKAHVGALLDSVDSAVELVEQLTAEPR
  hydrolytic activity (release of AMC, fluorescence): Pup(43-63)-Glu(AMC) (1c) was not a substrate for Dop

From US20130295595
